{"source": "patent US8906945B2", "about": "(priority 2009, dated 2014)", "key": {"[1]": {"test_system": "secretion of ExoS from P. aeruginosa PAKΔTY", "details": "50 μM during T3SS induction"}, "[2]": {"test_system": "secretion of ExoS from P. aeruginosa PAKΔTY", "assay": "microbe, parasite or virus in culture", "details": "Pseudomonas aeruginosa, read-out: IC50 of inhibition of native ExoS secretion"}}, "data": [{"smiles": "CC(Oc1ccc(Cl)cc1Cl)C(=O)NCc1ccc2c(c1)OCO2", "note": "(racemic) [Compound 1, N-(benzo[d][1,3]dioxol-5-ylmethyl)-2-(2,4-dichlorophenoxy)propanamide]", "values": [{"measurement": "secretion of ExoS (in words)", "setting": "[1]", "value": "completely inhibited"}, {"measurement": "IC50", "setting": "[2]", "value": "~12.5", "unit": "µM"}]}, {"smiles": "CCN1CCOC(CC(=O)Nc2ccc3c(c2)OCCO3)C1=O", "note": "(centres unmarked) [Compound 3, N-(2,3-dihydrobenzo[b][1,4]dioxin-6-yl)-2-(4-ethyl-3-oxomorpholin-2-yl)acetamide]", "values": [{"measurement": "secretion of ExoS (in words)", "setting": "[1]", "value": "completely inhibited"}]}, {"smiles": "CCN1CCOC(CC(=O)Nc2ccc(F)cc2)C1=O", "note": "(centres unmarked) [Compound 4, 2-(4-ethyl-3-oxomorpholin-2-yl)-N-(4-fluorophenyl)acetamide]", "values": [{"measurement": "secretion of ExoS (in words)", "setting": "[1]", "value": "completely inhibited"}]}, {"smiles": "Cc1ccc(N2C(=O)C3C(C2=O)C2(C)C=CC3(C)O2)c(C)c1", "note": "(centres unmarked) [Compound 8, 2-(2,4-dimethylphenyl)-4,7-dimethyl-3a,4,7,7a-tetrahydro-1H-4,7-epoxyisoindole-1,3(2H)-dione]", "values": [{"measurement": "secretion of ExoS (in words)", "setting": "[1]", "value": "significantly, but not completely"}]}]}
